Reference: patent publication US9439918B2 (priority 2008, dated 2016)

Test system: Salmonella, Shigella and C. jejuni
Assay type: cell-based
Details: MIC50 across Salmonella

Question: Which MIC50 ranges does the source give for Amoxicillin-clavulanate here?
Answer: Its MIC50 ranges is 2 to 8 µg/mL.
